Test results: patent EP0369035A1, “AGENT FOR TREATING PANCREATITIS OR THE LIKE” (priority 1988, dated 1989)

System: experimental DIC
Test: Effect on experimental DIC and MOF (endotoxin-induced)
Type: in vivo, SD-rats
Details: rat, 4 hours after endotoxin 10 mg/kg, tested form: 2HCl
Description: [III] Effect on experimental DIC
SD-rats, body weight of about 200 g, were starved overnight. Sodium pentobarbital was intraperioneally administered to anesthetize a rat, and then a cannula was inserted to the femoral vein, and the test substance dissolved in an injective 5% glucose solution was continually infused. Then, 10 minutes from the start of the injection, endotoxin (E. coli 0127:B8, Difco, U.S.) dissolved in physiological saline was injected through the tail vein to an amount of 10 mg/kg body weight, and 4 hours from the administration of endotoxin, the abdomen was opened, blood was obtained from the abdominal aorta, and platelets (Plt), fibrinogen (Fbg), fibrin degradation product (FDP), glutamic oxaloacetic transamirase (GOT), creatinine phosphokinase (CPK), and blood urin nitrogen (BUN) were measured.

CC(=O)c1ccc(NC(=O)[C@H](Cc2ccc(Oc3ccc([N+](=O)[O-])cn3)cc2)NC(=O)C2CCC(CN)CC2)cc1 (stereo partly drawn)
BUN (Dose 10 μg/kg/min infusion): 34 ± 4 mg/dL | Fbg (Dose 10 μg/kg/min infusion): 117 ± 22 mg/dL | GOT (Dose 10 μg/kg/min infusion): 304 ± 37 U/ml | Plat (Dose 10 μg/kg/min infusion): 59 ± 8 x 10^4/μl | BUN (Dose 100 μg/kg/min infusion): 32 ± 4 mg/dL | Fbg (Dose 100 μg/kg/min infusion): 147 ± 22 mg/dL | GOT (Dose 100 μg/kg/min infusion): 222 ± 56 U/ml | Plat (Dose 100 μg/kg/min infusion): 53 ± 10 x 10^4/μl | CPK (Table 5-1, Dose 100 μg/kg/min infusion): 25 ± 3 U/1
